Patent US6683157B2, “Variant human α7 acetylcholine receptor subunit, and methods of production and use thereof” (priority 1996, dated 2004)

Molecular target: variant human α7V274T nicotinic acetylcholine receptor (nAChR) (human, UniProt P36544 26-502)
Assay: radioligand binding to transfected HEK-293 cells

B1: [^125I]α-Bungarotoxin (ligand)
chain: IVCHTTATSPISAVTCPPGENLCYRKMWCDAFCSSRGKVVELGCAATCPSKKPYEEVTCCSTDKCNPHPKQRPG
  binding result: binds
